{
  "source": "paper doi:10.1101/541805",
  "key": {"rat Kv2.1-GFP (rat)": {"molecular_target": "rat Kv2.1-GFP (rat) (UniProt P15387)"}, "[1]": {"molecular_target": "rat Kv2.1 in Kv2.1-CHO cells (tetracycline-inducible, stably transfected) (rat) (UniProt P15387)"}, "[2]": {"molecular_target": "rat Kv2.1 in Kv2.1-CHO cells (tetracycline-inducible, stably transfected) (rat) (UniProt P15387)", "remark": "listed apart in the source"}, "[3]": {"molecular_target": "rat Kv2.1 in Kv2.1-CHO cells (tetracycline-inducible, stably transfected) (rat) (UniProt P15387)", "remark": "listed apart in the source"}, "[4]": {"molecular_target": "rat Kv2.1 in Kv2.1-CHO cells (tetracycline-inducible, stably transfected) (rat) (UniProt P15387)", "remark": "listed apart in the source"}, "[5]": {"molecular_target": "rat Kv2.1 in Kv2.1-CHO cells (tetracycline-inducible, stably transfected) (rat) (UniProt P15387)", "assay": "fluorescence dose response on live cells"}},
  "data": [
    {"substance": "GxTX-594 (guangxitoxin-1E Ser13Cys, Met35 norleucine, conjugated to Alexa 594) (from UniProt P84835 1-36) (peptide)", "values": [
      {"measurement": "Pearson correlation coefficient (colocalization with GFP)", "setting": "rat Kv2.1-GFP (rat)", "value": 0.86},
      {"measurement": "labeling left (F/Finit norm) after a step from −80 mV to +40 mV", "setting": "[1]", "value": 10, "unit": "%"},
      {"measurement": "labeling left (F/Finit norm) after a step from −80 mV to −40 mV", "setting": "[1]", "value": 70, "unit": "%"},
      {"measurement": "kΔF (rate of fluorescence change) at 0 mV", "setting": "[2]", "value": 0.13, "unit": "s⁻¹"},
      {"measurement": "kΔF (rate of fluorescence change) at 40 mV", "setting": "[2]", "value": 0.26, "unit": "s⁻¹"},
      {"measurement": "kΔF (rate of fluorescence change) at 80 mV", "setting": "[2]", "value": 0.53, "unit": "s⁻¹"},
      {"measurement": "kΔF (rate of fluorescence change) at −40 mV", "setting": "[2]", "value": 0.022, "unit": "s⁻¹"},
      {"measurement": "kΔF during the 40 mV step, basal surface, ROI 1", "setting": "[3]", "value": 0.043, "unit": "s⁻¹"},
      {"measurement": "kΔF during the 40 mV step, basal surface, ROI 2", "setting": "[3]", "value": 0.044, "unit": "s⁻¹"},
      {"measurement": "kΔF during the 40 mV step, basal surface, ROI 3", "setting": "[3]", "value": 0.057, "unit": "s⁻¹"},
      {"measurement": "kΔF during the 40 mV step, basal surface, ROI 4", "setting": "[3]", "value": 0.097, "unit": "s⁻¹"},
      {"measurement": "kΔF on return to −80 mV (labeling), basal surface, ROI 1", "setting": "[3]", "value": 0.00043, "unit": "s⁻¹"},
      {"measurement": "kΔF on return to −80 mV (labeling), basal surface, ROI 2", "setting": "[3]", "value": 0.00079, "unit": "s⁻¹"},
      {"measurement": "kΔF on return to −80 mV (labeling), basal surface, ROI 3", "setting": "[3]", "value": 0.0028, "unit": "s⁻¹"},
      {"measurement": "kΔF on return to −80 mV (labeling), basal surface, ROI 4", "setting": "[3]", "value": 0.0055, "unit": "s⁻¹"},
      {"measurement": "kΔF at 0 mV, 27°C", "setting": "[4]", "value": 0.028, "unit": "s⁻¹"},
      {"measurement": "kΔF at 0 mV, 37°C", "setting": "[4]", "value": 0.075, "unit": "s⁻¹"},
      {"measurement": "Kd", "setting": "[5]", "value": 26.9, "unit": "nM"}
    ]}
  ]
}
